Data from ChEMBL document CHEMBL4316619 (Bioorg Med Chem Lett, 2019).

Test system: Influenza A virus
Assay: Antiviral activity against influenza A virus A/Vietnam/1203/2004 x A/PR/8/34 (H5N1) harboring recombinant NS1 infected in MDCK cells assessed as reduction in virus-induced cytopathic effect measured on day 5 by Celltiter-Glo luminescence assay

## COc1cc(-c2ccnc3c2c(C)nn3-c2ccc(C(F)(F)F)cc2)ccc1O
  EC50: > 50 µM

## COc1cc(-c2c(C#N)c(N)nc3c2c(C)nn3-c2ccc(F)cc2)ccc1O
  EC90: 9.9 µM
